Pooled drug test results. Numbers come from NIAID ChemDB, via PubChem.

Common to all: whole-cell or culture tests; organism: HIV-1; cells: CEM + CEM-SS; read-out: EC50

ECn is the concentration giving n% inhibition of infection, replication or growth. Neighbouring rows are from separate reports. Blank or dashed fields: not listed here.

| compound | strain or isolate | mutations | method | value |
|---|---|---|---|---|
| Cc1cn([C@H]2C[C@H](N=[N+]=[N-])[C@@H](CO)O2)c(=O)[nH]c1=O | RF | - | cytopathic effect / XTT | 0.002 µM |
| CCCCCCCCCCCCSCC(COP(=O)([O-])OCC[N+](C)(C)C)OCCCCCCCCC(=O)OCC(=O)OC[C@H]1O[C@@H](n2cc(C)c(=O)[nH]c2=O)C[C@@H]1N=[N+]=[N-] | RF2803 WT | - | plaque count | 0.01 µM |
| Cc1ccc(/C=C2\CN(C)CC3=C2NC(=S)NC3c2ccc(C)cc2)cc1 | RF | - | cytopathic effect / XTT | >27.6 µM |
| CCCc1cc(=O)oc2c3c(c4c(c12)OC(C)(C)C=C4)O[C@H](C)[C@@H](C)[C@@H]3O | Pyridinone-resistant (RT K103N Y181C) | RT-K103N Y181C | XTT | 0.12 µM |
| Cc1ccnc2c1NC(=O)c1cccnc1N2C1CC1 | NL4-3 | RT-A98G | cytopathic effect / XTT | 0.2 µM |
| CCc1c(Sc2ccccn2)n(COCc2ccccc2)c(=O)[nH]c1=O | IIIB | RT-V90I T139I P225S | cytopathic effect / XTT | 0.002 µM |
| CN1C/C(=C\c2cccs2)C2=NN(c3ccccc3)C(c3cccs3)C2C1 | RF | - | cytopathic effect / XTT | >9.1 µM |
| CCCc1cc(=O)oc2c3c(c4c(c12)OC(C)(C)C=C4)O[C@@H](C)[C@H](C)[C@@H]3O | TIBO R82150-resistant (RT A98G V108I) | RT-A98G V108I | XTT | 1.6 µM |
| Cc1cn([C@H]2C[C@H](N=[N+]=[N-])[C@@H](CO)O2)c(=O)[nH]c1=O | NL4-3 | - | cytopathic effect / XTT | 0.003 µM |
| Cc1cn([C@H]2C[C@H](N=[N+]=[N-])[C@@H](CO)O2)c(=O)[nH]c1=O | NL4-3 | RT-L74V | XTT | 0.005 µM |
| CN1C/C(=C\c2cccs2)C2=NN(C)C(c3cccs3)C2C1 | RF | - | cytopathic effect / XTT | >200 µM |
| CN1N=C(N)c2cn([C@@H]3O[C@H](COP(=O)(O)O)[C@@H](O)[C@H]3O)c3ncnc1c23 | MN | - | XTT | 0.02 µM |
| CCCCCCCCCCCCSCC(COP(=O)([O-])OCC[N+](C)(C)C)OCCCCCCCCO | IIIB | - | plaque count | 0.61 µM |
| Cc1occc1C(=S)Nc1ccc(Cl)c(/C=N/OC(C)(C)C)c1 | NL4-3 (RT A98G) | RT-A98G | cytopathic effect / XTT | 0.7 µM |
| Fc1cccc(F)c1C1SCc2nc3ccccc3n21 | 214 | - | cytopathic effect / XTT | 1.11 µM |
| CNc1ccc(Cl)cc1S(=O)(=O)c1ccccc1[N+](=O)[O-] | RF | - | XTT | 0.3 µM |
| O=S1(c2ccc(Cl)cc2)=NC(=S)Nc2ccc(Cl)cc21 | IIIB | - | cytopathic effect / XTT | 0.71 µM |
| Cc1ccnc2c1NC(=O)c1cccnc1N2C1CC1 | IIIB | - | cytopathic effect / XTT | 0.1 µM |
| Cc1c(Sc2ccccc2)n(COCCO)c(=O)[nH]c1=O | UC38-R(RT-Y181C | RT-Y181C | cytopathic effect / XTT | 0.4 µM |
| Cc1cn([C@H]2C[C@H](N=[N+]=[N-])[C@@H](CO)O2)c(=O)[nH]c1=O | Clinical isolate G910-6 post-AZT | RT mutant at codon 215 | plaque count | 0.33 µM |
| COc1ccc(/C=C2\CN(C)CC3=C2NC(=S)NC3c2ccc(OC)cc2)cc1 | RF | - | cytopathic effect / XTT | >6.8 µM |
| Cc1cn([C@H]2C[C@H](N=[N+]=[N-])[C@@H](CO)O2)c(=O)[nH]c1=O | 214 | - | cytopathic effect / XTT | 0.0009 µM |
| CNc1c(Cl)cccc1S(=O)(=O)c1ccccc1[N+](=O)[O-] | IIIB | - | XTT | 4 µM |
| CC(C)=CCOc1cc(NC(=S)c2ccoc2C)ccc1Cl | Costatolide-resistant (RT L100I T139I) | RT-L100I T139I | XTT | 0.04 µM |
| Cc1cn([C@H]2C[C@H](N=[N+]=[N-])[C@@H](CO)O2)c(=O)[nH]c1=O | PM16 | - | cytopathic effect / MTT | 0.014 µM |
| CCc1c(C(=O)c2cc(C)cc(C)c2)n(CC2CC=CC2)c(=O)[nH]c1=O | NL4-3 | RT-T139I | cytopathic effect / XTT | 0.002 µM |
| Cc1cc2c(c(S(=O)(=O)c3ccccc3[N+](=O)[O-])c1)NCCC2 | IIIB | - | XTT | 0.5 µM |
| O=S(=O)(c1ccccc1)c1ccccc1 | UC10-resistant (RT Y181C K101E) | RT-Y181C K101E | cytopathic effect / XTT | >114 µM |
| O=S1(c2ccccc2)=NC(=S)Nc2ccccc21 | 214 | - | cytopathic effect / XTT | 1.2 µM |
| CCc1c(Sc2ccccn2)n(COCc2ccccc2)c(=O)[nH]c1=O | IIIB | - | cytopathic effect / XTT | 0.02 µM |
| Cc1cn([C@H]2C[C@H](N=[N+]=[N-])[C@@H](CO)O2)c(=O)[nH]c1=O | NL4-3 | RT-Y181C | cytopathic effect / XTT | 0.01 µM |
| C/C=C/CSc1cc(NC(=S)c2ccsc2C)ccc1Cl | NL4-3 (RT K103N) | RT-K103N | cytopathic effect / XTT | 0.8 µM |
| Cc1ccnc2c1NC(=O)c1cccnc1N2C1CC1 | NL4-3 | - | XTT | 0.02 µM |

A second listing of 3 rows from above:

compound,strain or isolate,mutations,method,value
CCCc1cc(=O)oc2c3c(c4c(c12)OC(C)(C)C=C4)O[C@@H](C)[C@H](C)[C@@H]3O,TIBO R82150-resistant (RT A98G V108I),RT-A98G V108I,XTT,1.6 µM
Cc1cn([C@H]2C[C@H](N=[N+]=[N-])[C@@H](CO)O2)c(=O)[nH]c1=O,PM16,-,cytopathic effect / MTT,0.014 µM
CN1N=C(N)c2cn([C@@H]3O[C@H](COP(=O)(O)O)[C@@H](O)[C@H]3O)c3ncnc1c23,MN,-,XTT,0.02 µM